Tested on: His6-GacA
Experiment: EMSA
Conditions: 4-12 uM GacA, 20 mM acetyl phosphate, abolished by unlabeled DNA, 20 mM Tris pH 8.0, 150 mM NaCl, 10 mM EDTA, 100 ug/mL BSA, 10% glycerin, 1 mM DTT, ~10 nM probe, 20 min, room temperature, 6% native PAGE, recombinant protein, residues 1-211, protein details: His6, label: IR700 (5' end of forward primer), probe letters rebuilt from the primers and the genome

## AAAATCGCCTATTAAAAGTCTCTTTATGTAAATTTTGAATGAGCTTCATTTGTATAATCAATAATAATTCTCAAAAAAATTTTTCAAGCATAAATAATTGATTTTAAACAAAATAATTTAGATAAATAACATACATATAACATAAAAATATAAAAGCAAAAACCTTATAAAAACATATAAACATATGATTTTCATTAAAAAATAAAGAAAACTCCAAATATCTGCTAGTTAGTCTTTAGTCTTATTTTTTTTATGATTTTATGCTTTAATACAGCCACTTTTTTATTTGATCTTTCATTGTATCCCAATGAATGACTTGTACGTTGTACATATTTTGAATAGGCCTCACC (double strand) [pckG promoter probe]
  binding result: binds

Reference: paper PMC10746170
